Compound potency records, mixed from different reports. Data source: NIAID ChemDB in PubChem.

Shared fields: growth or infection tests; species: HIV-2

ECn is the concentration giving n% inhibition of infection, replication or growth.

SMILES,cells,read-out,setting,method,strain,result
Cn1ncc2c1S(=O)(=O)N(Cc1cccc(Cl)c1)C(=O)N2Cc1ccc(Br)cc1,MT-4,EC50,-,cytopathic effect / MTT,ROD,>252.3 µM
CCOCn1c(Sc2cc(C)cc(C)c2)c(C(C)C)c(=O)[nH]c1=S,MT-4,EC50,-,trypan blue,ROD,>50 µM
Cc1cn([C@@H]2O[C@H](CO[Si](C)(C)C(C)(C)C)C3(OC(=O)N(C)C3=N)[C@H]2O[Si](C)(C)C(C)(C)C)c(=O)n(C)c1=O,CEM,EC50,-,syncytia,ROD,>35 µM
Cc1cn([C@H]2C[C@H](N=[N+]=[N-])[C@@H](CO)O2)c(=O)[nH]c1=O,MT-4,EC50,-,cytopathic effect,ZY,0.04 µM
CC(C)(C)NC(=O)[C@@H]1C[C@@H]2CCCC[C@@H]2CN1C[C@@H](O)[C@H](Cc1ccccc1)NC(=O)[C@H](CC(N)=O)NC(=O)c1ccc2ccccc2n1,MT-2,EC50,-,cytopathic effect / MTT,EHO Laboratory isolate,0.004 µM
Cc1cn([C@@H]2O[C@H](CO[Si](C)(C)C(C)(C)C)[C@@H](O)[C@H]2O[Si](C)(C)C(C)(C)C)c(=O)n(CC(=O)O)c1=O,CEM,EC50,-,syncytia,ROD,>10 µM
O=c1[nH]n(-c2nc3ccccc3c(=O)n2-c2ccc([N+](=O)[O-])cc2)c(=O)c2ccccc12,MT-4,EC50,-,visual reading,ROD,66.47 µM
Cn1ncc2c1S(=O)(=O)N(Cc1cccc(Cl)c1)C(=O)N2Cc1ccc(Cl)cc1Cl,MT-4,EC50,-,cytopathic effect / MTT,ROD,>257.5 µM
Cc1cn([C@H]2C[C@H](N=[N+]=[N-])[C@@H](CO)O2)c(=O)nc1N(C)N,MT-4,EC50,-,MTT / ELISA,ROD,0.06 µM
C1CNCCNCCCN(CCCN2CCCNCCNCCCNCC2)CCNC1,MT-4,EC50,-,cytopathic effect / MTS,ROD,8.95 µM
O=c1[nH]n(-c2nc3ccccc3c(=O)n2-c2ccccc2Cl)c(=O)c2ccccc12,MT-4,EC50,-,visual reading,ROD,100 µM
Cc1cn([C@H]2C[C@H](N=[N+]=[N-])[C@@H](CO[Si](C)(C)C(C)(C)C)O2)c(=O)n(CC(=O)O)c1=O,CEM,EC50,-,syncytia,ROD,>50 µM
CCN1c2ncccc2N(C)C(=S)c2oc3cccnc3c21,C8166,EC50,-,cytopathic effect,ROD,>60 µM
C=C1C[C@@H](n2cnc3c(=O)[nH]c(N)nc32)[C@@H]1CO,MT-4,EC50,-,cytopathic effect / MTT,ROD,>100 µM
O=C(NCc1ccc(F)cc1)c1nc(N2CCCCS2(=O)=O)c2cccnc2c1O,-,EC50,-,-,-,<0.008 µM
COc1ccc(S(=O)(=O)N(CC(C)C)C[C@@H](O)[C@H](Cc2ccccc2)NC(=O)O[C@H]2CO[C@H]3OCC[C@H]32)cc1,MT-2,EC50,-,cytopathic effect / MTT,EHO Laboratory isolate,0.0005 µM
CCC(C)C(NP(=O)(OC[C@@H]1C=C[C@H](n2cc(C)c(=O)[nH]c2=O)O1)Oc1ccccc1)C(=O)OC,CEM + CEM/O,EC50,-,syncytia,ROD,12.5 µM
CO[P@](=O)(c1cc(C)cc(/C=C/C#N)c1)c1c(C(N)=O)[nH]c2ccc(Cl)c(F)c12,H9,EC50,-,-,ROD,>1.25 µM
Cc1cccc2nc3n(c12)C(c1c(F)cccc1Cl)SC3,MT-4,EC50,-,cytopathic effect / MTT,ROD,>25.7 µM
Nc1nc(NC2CC2)c2ncn(C3CC=C[C@H]3CO)c2n1,CEM/TK-,EC50,-,-,ROD,>100 µM
COc1ccc(Cc2nccc3cc(OC)c(OC)cc23)cc1OC,MT-4,EC50,-,cytopathic effect / MTT,ROD,>2 µg/mL
CCCCC#CCSc1ccccc1OC(C)=O,PBMC,EC50,-,p24,CDC310319,>100 µM
COc1ccc2c(c1)nc1n2C(c2c(F)cccc2Cl)SC1,MT-4,EC50,-,cytopathic effect / MTT,ROD,>1.8 µM
Nc1nc2c(ncn2C2C=C[C@@H](CO)C2)c(=O)[nH]1,CEM/TK-,EC50,-,-,ROD,3.7 µM
C[C@H](Cn1cnc2c(N)ncnc21)OCP(=O)(O)O,CEM,EC50,-,syncytia,ROD,2.6 µM
CC(C)(C)[Si](C)(C)OC[C@@H]1CC[C@H](n2cnc3c(=O)n(CC(=O)OCc4ccccc4)cnc32)O1,CEM,EC50,-,syncytia,ROD,>50 µM
Cc1cn([C@H]2C[C@H](N=[N+]=[N-])[C@@H](CO)O2)c(=O)[nH]c1=O,PBMC,EC50,-,-,ROD,<0.01 µM
Cc1cn([C@H]2C[C@@H](N=[N+]=[N-])[C@@H](CO)O2)c(=O)[nH]c1=O,MT-4,EC50,-,MTT,ROD,0.004 µM
COP(=O)(O)C[C@H](NP(=O)(O)OC[C@@H]1C=C[C@H](n2cc(C)c(=O)[nH]c2=O)O1)C(=O)O,MT-4,EC50,-,MTT,ROD,0.19 µM
Nc1ccn([C@H]2CC[C@@H](CO)O2)c(=O)n1,PBMC,EC50,-,-,ROD,0.05 µM
O=c1[nH]n(-c2nc3ccccc3c(=O)n2-c2ccccc2)c(=O)c2ccccc12,MT-4,EC50,-,visual reading,ROD,100 µM
CCCc1cc(=O)oc2c3c(c4c(c12)OC(C)(C)C=C4)O[C@H](C)[C@@H](C)[C@@H]3O,CEM + CEM-SS,EC50,-,cytopathic effect / XTT,MS,>10 µM
Cc1cn([C@@H]2O[C@H](CO[Si](C)(C)C(C)(C)C)[C@@H](O)[C@H]2O[Si](C)(C)C(C)(C)C)c(=O)n(CCO)c1=O,MT-4,EC50,-,cytopathic effect / trypan blue,ROD,40 µM
CC(C)[C@H](NC(=O)OCc1ccccc1)C(=O)N[C@@H](Cc1ccccc1)[C@@H](O)[C@@H](NCc1ccc(Cl)cc1)C(=O)N[C@H](C(=O)NCc1nc2ccccc2[nH]1)C(C)C,MT-4,EC50,-,p24,ROD,0.415 µM
Nc1nc(=O)n([C@@H]2CS[C@H](CO)O2)cc1F,CEM,EC50,-,cytopathic effect,ZY,0.1 µM
Cc1cn([C@H]2C[C@H](N=[N+]=[N-])[C@@H](CO)O2)c(=O)[nH]c1=O,PBMC,EC50,-,p24 / RT activity,-,0.012 µM
Cc1cn([C@@H]2O[C@H](CO[Si](C)(C)C(C)(C)C)[C@@H](O)[C@H]2O[Si](C)(C)C(C)(C)C)c(=O)n(CC#N)c1=O,MT-4,EC50,-,cytopathic effect / trypan blue,ROD,>2 µM
CC(C)=CCN1Cc2cc(Cl)cc3[nH]c(=S)n(c23)C[C@@H]1C,PBMC,EC50,-,-,ROD,>6.25 µM
O=C1O[C@H]2[C@@H]3OC(=O)c4cc(O)c(O)c(O)c4-c4c(cc(O)c(O)c4O)C(=O)OC[C@H]2O[C@@H](OC(=O)c2cc(O)c(O)c(O)c2)[C@@H]3OC(=O)c2cc(O)c(O)c3c2[C@@H]2C1=CC(=O)[C@](O)(O3)C2(O)O,MAGI,EC50,-,-,ROD WT,0.83 µg/mL
COC(=O)[C@H](C)NP(=O)(OC[C@@H]1C=C[C@H](n2cc(C)c(=O)[nH]c2=O)O1)Oc1ccccc1,CEM + CEM/O,EC50,-,syncytia,ROD,0.102 µM
CCOP(=O)(N[C@@H](CC(C)C)C(=O)OC)OC[C@H]1O[C@@H](n2cc(C)c(=O)[nH]c2=O)C[C@@H]1N=[N+]=[N-],MT-4,EC50,-,cytopathic effect / MTT,ROD,0.2 µg/mL
C=C1C[C@@H](n2cnc3c(N)ncnc32)[C@@H]1CO,MT-4,EC50,-,cytopathic effect / MTT,ROD,>100 µM
CC(C)=CCN1Cc2cc(Cl)cc3[nH]c(=S)n(c23)C[C@@H]1C,CEM + CEM-SS,EC50,-,cytopathic effect / MTT,ROD,>310 µM
COc1ccc(CN[C@@H](C(=O)N[C@H](C(=O)NCc2nc3ccccc3[nH]2)C(C)C)[C@H](O)[C@H](Cc2ccccc2)NC(=O)[C@@H](NC(=O)[C@@](C)(O)c2ccccc2)C(C)(C)C)cc1,MT-4,EC50,-,p24,EHO,0.47 µM
Cc1cn([C@H]2C[C@H](N=[N+]=[N-])[C@@H](CO)O2)c(=O)[nH]c1=O,MAGI + MAGI-CCR5,EC50,3 d,β-galactosidase,ROD,0.026 µM
Cc1cn([C@H]2C=C[C@@H](COP(=O)(O)N(CC(=O)O)CC(=O)O)O2)c(=O)[nH]c1=O,CEM/TK-,EC50,-,MTT,ROD,155 µM
Cc1cc([N+](=O)[O-])ccc1NC(=O)CSc1sc(N)nc1-c1ccc(Br)cc1Br,MT-4,EC50,-,MTT,ROD,>30.81 µM
CCCCCCCCCCCCCCCCCCCCCCC(=O)O[C@@H]1[C@@H](C)[C@@]2(O)[C@@H](C=C(COC(C)=O)C[C@]3(O)C(=O)C(C)=C[C@@H]23)[C@@H]2C(C)(C)[C@]12O,C8166,EC50,-,cytopathic effect,CBL-20,0.255 µM
Nc1ccn([C@H]2CC[C@@H](CO)O2)c(=O)n1,MT-4,EC50,-,cytopathic effect / MTT,ROD,0.058 µg/mL
Cc1ccnc2c1NC(=O)c1cccnc1N2C1CC1,CEM + CEM-SS,EC50,-,cytopathic effect / XTT,ROD,>38 µM
COc1ccc(CN[C@@H](C(=O)N[C@H](C(=O)NCc2nc3ccccc3[nH]2)C(C)C)[C@H](O)[C@H](Cc2ccccc2)NC(=O)[C@@H](NC(=O)CCc2ccc(O)cc2)C(C)(C)C)cc1,MT-4,EC50,-,p24,ROD,0.7 µM
CC(C)[C@H](NC(=O)N(C)Cc1ccccn1)C(=O)N[C@@H](Cc1ccccc1)[C@H](O)[C@H](O)[C@H](Cc1ccccc1)NC(=O)[C@@H](NC(=O)N(C)Cc1ccccn1)C(C)C,MT-4,EC50,-,cytopathic effect / MTT,MS,0.24 µM
Cc1cn([C@H]2C=C[C@@H](CO[Si](C)(C)C(C)(C)C)O2)c(=O)n(CC(=O)O)c1=O,MT-4,EC50,-,cytopathic effect / trypan blue,ROD,>50 µM
Cc1cn([C@H]2C=C[C@@H](COP(=O)(O)N[C@@H](CC(=O)O)C(=O)O)O2)c(=O)[nH]c1=O,MT-4,EC50,-,MTT,ROD,0.24 µM
Cn1ncc2c1S(=O)(=O)N(Cc1cccc(Cl)c1)C(=O)N2Cc1ccccc1C#N,MT-4,EC50,-,cytopathic effect / MTT,ROD,>233.3 µM
CCOCn1c(Sc2cc(C)cc(C)c2)c(CC)c(=O)[nH]c1=S,MT-4,EC50,-,cytopathic effect / MTT,EHO,>100 µM
Cc1cn([C@@H]2O[C@H](CO[Si](C)(C)C(C)(C)C)C3(OC(=O)N=C3N)[C@H]2O[Si](C)(C)C(C)(C)C)c(=O)[nH]c1=O,CEM,EC50,-,syncytia,ROD,>35 µM
Cc1ccnc2c1NC(=O)c1cccnc1N2C1CC1,MT-4,EC50,5 d,cytopathic effect / MTT,ROD,>1000 µM
OC[C@H]1N[C@H](CO)[C@@H](O)[C@@H]1O,MT-4,EC50,-,cytopathic effect / MTT,ROD,>250 µg/mL
CCOCn1c(Cc2cc(C)cc(C)c2)c(CC)c(=O)[nH]c1=O,MT-4,EC50,-,cytopathic effect / MTT,ROD,>249 µM
Cc1cn([C@@H]2O[C@H](CO[Si](C)(C)C(C)(C)C)[C@@H](O[Si](C)(C)C(C)(C)C)[C@H]2O)c(=O)n(CC(=O)ON)c1=O,MT-4,EC50,-,cytopathic effect / trypan blue,ROD,>2 µM
Cc1ccnc2c1NC(=O)c1cccnc1N2C1CC1,MT-4,EC50,-,MTT,ROD,>15 µM
CC(C)(C)NC(=O)[C@@H]1CN(Cc2cccnc2)CCN1C[C@@H](O)C[C@@H](Cc1ccccc1)C(=O)N[C@H]1c2ccccc2C[C@H]1O,MT-2,EC50,-,cytopathic effect / MTT,EHO Laboratory isolate,0.01 µM
Nc1nc(-c2ccc(Br)cc2Br)c(SCC(=O)Nc2ccccc2N)s1,MT-4,EC50,-,MTT,ROD,>33.04 µM
CC(C)CN(C[C@@H](O)[C@H](Cc1ccccc1)NC(=O)[C@@H](NC(=O)CNCc1cccc(F)c1)C(C)(C)C)S(=O)(=O)c1ccc(N)cc1,MT-2,EC90,-,virus yield,-,0.032 µM
Cn1ncc2c1S(=O)(=O)N(Cc1cccc(Cl)c1)C(=O)N2Cc1ccccc1F,MT-4,EC50,-,cytopathic effect / MTT,ROD,>257.8 µM
Fc1ccc2c(c1)nc1n2C(c2c(Cl)cccc2Cl)SC1,MT-4,EC50,-,cytopathic effect / MTT,ROD,>13.3 µM
Nc1ncnc2c1ncn2[C@@H]1C[C@H](CO)[C@H]1CO,MT-4,EC50,-,cytopathic effect / MTT,ROD,4.4 µM
CCOCn1c(Sc2cc(C)cc(C)c2)c(CC)c(=O)[nH]c1=O,MT-4,EC50,-,cytopathic effect / MTT,ROD,>100 µM
Cc1cn([C@@H]2O[C@H](CO[Si](C)(C)C(C)(C)C)[C@@]3(OS(=O)(=O)C=C3N)[C@H]2O[Si](C)(C)C(C)(C)C)c(=O)[nH]c1=O,MT-4,EC50,-,trypan blue,ROD,>50 µM
Fc1ccc2nc3n(c2c1)C(c1c(F)cccc1F)SC3,MT-4,EC50,-,cytopathic effect / MTT,ROD,>162.6 µM
CN(C)c1cccc2c(S(=O)(=O)N3CCSC3c3cccnc3)cccc12,MAGI + MAGI-CCR5,EC50,3 d,β-galactosidase,ROD,>2000 µM
c1ccc(CNCc2ccc(CN3CCCNCCNCCCNCC3)cc2)nc1,MT-4,EC50,-,cytopathic effect / MTS,EHO,0.0123 µM
COC(=O)CCn1c(=O)c(C)cn([C@@H]2O[C@H](CO[Si](C)(C)C(C)(C)C)[C@@H](O)[C@H]2O[Si](C)(C)C(C)(C)C)c1=O,MT-4,EC50,-,cytopathic effect / trypan blue,ROD,>10 µM
Nc1nc(=O)n([C@H]2C=C[C@@H](CO)O2)cc1F,PBMC,EC50,-,-,-,<0.07 µM
Nc1nc(NC2CC2)c2ncn(C3C=C[C@@H](CO)C3)c2n1,CEM,EC50,-,-,ROD,5.2 µM

Repeating the final 5 entries:

SMILES,cells,read-out,setting,method,strain,result
CN(C)c1cccc2c(S(=O)(=O)N3CCSC3c3cccnc3)cccc12,MAGI + MAGI-CCR5,EC50,3 d,β-galactosidase,ROD,>2000 µM
c1ccc(CNCc2ccc(CN3CCCNCCNCCCNCC3)cc2)nc1,MT-4,EC50,-,cytopathic effect / MTS,EHO,0.0123 µM
COC(=O)CCn1c(=O)c(C)cn([C@@H]2O[C@H](CO[Si](C)(C)C(C)(C)C)[C@@H](O)[C@H]2O[Si](C)(C)C(C)(C)C)c1=O,MT-4,EC50,-,cytopathic effect / trypan blue,ROD,>10 µM
Nc1nc(=O)n([C@H]2C=C[C@@H](CO)O2)cc1F,PBMC,EC50,-,-,-,<0.07 µM
Nc1nc(NC2CC2)c2ncn(C3C=C[C@@H](CO)C3)c2n1,CEM,EC50,-,-,ROD,5.2 µM

Conditions beyond the fields shown may differ between rows. An empty or dashed field is not shown.